# Experimental data: patent US20210252150A1
# Molecular target: HA of A/duck/Alberta/60/1976 (H12N5) (influenza A virus (H12N5)) (UniProt P03446)
# Experiment: ELISA
substance,measurement,value
rFluA-20 heavy chain mutant C101A (antibody),EC50,0.09 µg/mL
